Pooled drug test results. Numbers come from NIAID ChemDB, via PubChem.

All rows: growth or infection tests; agent: HIV-1; endpoint: inhibition

Neighbouring rows are from separate reports. Blank or dashed fields: not listed here. Inhibition is in % at the dose shown (toxicity tests: loss of growth or viability).

structure | strain | cells | method | conditions | dose | result
C[C@H]1[C@H](O)[C@@H](C)/C=C/C=C/C=C/C=C/C=C/C=C/C=C/[C@H](O[C@@H]2O[C@H](C)[C@@H](O)[C@H](N)[C@@H]2O)C[C@@H]2O[C@](O)(C[C@@H](O)C[C@@H](O)CC[C@H](O)[C@@H](O)C[C@@H](O)CC(=O)O[C@H]1C)C[C@H](O)[C@H]2C(=O)O | 93BR029 CLADE F R5 (NSI) | PBMC | p24 / RT activity |  | 2.1 µM | 90%
O=C(C(=O)N1CCN(C(=O)c2ccccc2)CC1)c1c[nH]c2c(OCC(F)(F)F)ccc(F)c12 |  | HeLa + HELA CD4+/CCR5 | luciferase |  | 10 µM | >98%
CC(C)[C@H](NC(=O)[C@H](CO)NC(=O)[C@@H](N)CS)C(=O)N[C@H](C(=O)N[C@@H](CS)C(=O)NCC(=O)O)[C@@H](C)O | IIIB | PBMC(PHA STIM.) + PBMC | p24 |  | 0.66 µM | 79%
C[C@@H]1CN(C(=O)c2ccccn2)CCN1C(=O)C(=O)c1c[nH]c2c(F)ccc(F)c12 |  | HeLa + HELA CD4+/CCR5 | luciferase |  | 10 µM | >98%
O=C1[C@@H](Cc2ccccc2)NC(=S)N1Cc1ccccc1 |  | MT-4 | cytopathic effect / XTT |  | 100 µg/mL | 100%
CSc1ccc(S)c(C(=O)N2CCN(C(=O)C(=O)c3c[nH]c4cccc(F)c34)CC2)c1 |  | HeLa + HELA CD4+/CCR5 | luciferase |  | 10 µM | 75%
CC(=O)N1C(=O)[C@@H](Cc2ccccc2)NC1=S |  | MT-4 | cytopathic effect / XTT |  | 10 µg/mL | 26%
CC(=O)CCC(=O)NCCCOCCOCCCNC(=O)CNC(=O)[C@H](CS)NC(=O)[C@@H](NC(=O)[C@@H](NC(=O)[C@H](CO)NC(=O)[C@@H](N)CS)C(C)C)[C@@H](C)O | BaL | PBMC(PHA STIM.) + PBMC | p24 |  | 0.132 µM | 32%
O=C(NCCc1ccccc1)Nc1nc(-c2ccc(Cl)cc2)cs1 |  | MT-4 | cytopathic effect / XTT |  | 100 µg/mL | 18%
COc1ccc(OC)c2c(C(=O)C(=O)N3CCN(C(=O)c4ccc(Br)o4)C[C@H]3C)c[nH]c12 |  | HeLa + HELA CD4+/CCR5 | luciferase |  | 10 µM | >98%
NS(=O)(=O)c1ccc(NC(=O)NCCc2ccccc2)cc1 |  | MT-4 | cytopathic effect / XTT |  | 0.1 µg/mL | 3%
CC1(C)[C@@H](O[C@H]2O[C@H](C(=O)O)[C@@H](O)[C@H](O)[C@H]2O[C@@H]2O[C@H](C(=O)O)[C@@H](O)[C@H](O)[C@H]2O)CC[C@]2(C)[C@H]3C(=O)C=C4[C@@H]5C[C@@](C)(C(=O)O)CC[C@]5(C)CC[C@@]4(C)[C@]3(C)CC[C@@H]12 | IIIB | MOLT-4 | virus yield | 9 d | 1200 µM | 93.5%
O=C1NC(=S)N[C@@H]1Cc1ccccc1 |  | MT-4 | cytopathic effect / XTT |  | 0.1 µg/mL | 8%
COC(=O)c1cccc2c(C(=O)C(=O)N3CCN(C(=O)c4ccccc4)CC3CC(C)C)c[nH]c12 |  | HeLa + HELA CD4+/CCR5 | luciferase |  | 10 µM | 81%
Cc1ccc(-c2ccc3c(c2)C=C(C(=O)Nc2ccc(C[N+](C)(C)C4CCOCC4)cc2)CCC3)cc1 | Du104 CLADE C | PBMC | p24 |  | 1 µM | 100%

For reference, 2 entries again:

structure | strain | cells | method | conditions | dose | result
O=C1NC(=S)N[C@@H]1Cc1ccccc1 |  | MT-4 | cytopathic effect / XTT |  | 0.1 µg/mL | 8%
CC(=O)CCC(=O)NCCCOCCOCCCNC(=O)CNC(=O)[C@H](CS)NC(=O)[C@@H](NC(=O)[C@@H](NC(=O)[C@H](CO)NC(=O)[C@@H](N)CS)C(C)C)[C@@H](C)O | BaL | PBMC(PHA STIM.) + PBMC | p24 |  | 0.132 µM | 32%